In publication PMC3236198:
The exact form of at least one protein or probe is not confirmed. At least one verdict rests on a figure or table, not on a statement of the authors. Tags and fusion partners may be left off the protein sequences shown.

Biological target: T1, MtuSSB (Mycobacterium tuberculosis) (UniProt P9WGD5)
T1 sequence: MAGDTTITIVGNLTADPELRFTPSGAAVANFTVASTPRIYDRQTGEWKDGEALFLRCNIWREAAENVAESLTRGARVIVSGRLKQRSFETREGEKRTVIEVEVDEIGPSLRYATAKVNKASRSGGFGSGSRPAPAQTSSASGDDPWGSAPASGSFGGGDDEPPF
Test: EMSA
Conditions: recombinant protein; label: 5'-32P; single-stranded DNA

GCACTAGTGCGGATAGCCCCGTGTTGTTGTCTGACCCCCGACCCCGACGGCAATGCGGGGCAATCCCCTGGAGGCCTGC [79mer ssDNA]
binding result: binds
